Results on two compounds are retold here after patent US5708032A, “Fluoroalkenyl compounds and their use as pest control agents” (Monsanto Company, priority 1995, dated 1998).

In the assay the test system is root knot nematodes (Meloidogyne incognita). The assay is described as follows: systemic control of root knot nematodes on tomato roots by foliar application. The assay is classed as in vivo. The conditions noted are these: tomato cv Rutgers, 3 weeks; for Mean percent root disease (galled): mean of three plants, non-treated generally 60% or greater; for percent control of root disease relative to non-treated plants: * = no biological activity at the rate tested.

With “Phosphonic acid, [[(3,4,4-trifluoro-1-oxo-3 butenyl)amino]methyl]-, disodium salt”, for the setting “100 ppm foliar spray”, the “Mean percent root disease (galled)” value was found to be 87% and the “percent control of root disease relative to non-treated plants” value is recorded as -8%. Besides, where the note is “500 ppm foliar spray”, the “Mean percent root disease (galled)” value is 80% and the “percent control of root disease relative to non-treated plants” value was determined as 0%.

Consider `CCOP(=O)(CC(F)=C(F)F)OCC`, for which the “Mean percent root disease (galled)” value (100 ppm foliar spray) came out at 30% and the “Mean percent root disease (galled)” value (500 ppm foliar spray) is 27%. The “percent control of root disease relative to non-treated plants” value is, setting by setting: (100 ppm foliar spray) 44%; (500 ppm foliar spray) 50%.
